Anti-infective test results gathered from many reports (values: NIAID ChemDB through PubChem).

Shared fields: tests on isolated targets; agent: Pneumocystis carinii; target: DHFR; read-out: IC50

ICn is the concentration giving n% inhibition.

Nc1nc(N)c2c(n1)CCC(CNc1cccc3ccccc13)C2 ; value: 520 µM
COc1cc(-c2nc3nc(N)nc(N)c3[nH]2)cc(OC)c1O ; value: >68 µM
NC(=O)c1ccc(NCc2cnc3nc(N)nc(N)c3n2)cc1 ; value: 0.153 µM
COc1c(-n2cccc2)cc(Cc2cnc(N)nc2N)cc1-n1cccc1 ; value: 4.5 µM
COc1ccc(-c2nc3nc(N)nc(N)c3[nH]2)c(OC)c1OC ; value: >17 µM
Cc1c(CNc2ccc(Cl)c(C(=O)NC(CC(=O)O)C(=O)O)c2)ccc2nc(N)nc(N)c12 ; value: 0.0054 µM
COc1cc(Cc2cnc(N)nc2N)cc2c1OC(C)(C)O2 ; value: 13.9 µM
O=S(=O)(O)c1cc(O)c(N=Nc2cccc3ccc(O)cc23)c2ccccc12 ; value: 140 µM
COCCOCCOCCOc1c(OC)cc(Cc2cnc(N)nc2N)cc1OC ; value: 36 µM
CC1(C)N=C(N)N=C(N)N1c1ccc(OCCOc2ccc(N)cc2)cc1 ; value: 0.47 µM
COc1ccc(C(=O)c2cc(OC)c(OC)c(OC)c2)cc1OC ; value: 42 µM
COc1cc(Cc2cnc(N)nc2N)cc(OCCC(=O)NC(CC(=O)O)C(=O)O)c1Br ; value: 2 µM
CN(Cc1cnc2nc(N)nc(N)c2n1)c1ccc(C(=O)N[C@@H](CCC(=O)N[C@@H](CCC(=O)N[C@@H](CCC(=O)O)C(=O)O)C(=O)O)C(=O)O)cc1 ; value: 0.0002 µM
COc1ccc(NCc2cnc3nc(N)nc(N)c3c2C)c2ccccc12 ; value: 8.2 µM
CC1(C)N=C(N)N=C(N)N1c1cccc(CCc2ccccc2)c1 ; value: 0.43 µM
CN(Cc1cnc2nc(N)nc(N)c2n1)c1c(Cl)cc(C(=O)N[C@@H](CCC(=O)O)C(=O)O)cc1Cl ; value: 0.000035 µM
c1ccc(Oc2nc(Oc3ccccc3)nc(Oc3ccccc3)n2)cc1 ; value: ~500 µM
CC1(C)N=C(N)N=C(N)N1c1cccc(OCCCOc2ccc(N)cc2)c1 ; value: 0.17 µM
Cc1cc(NC(=O)Oc2ccc3c(C)cc(=O)oc3c2)cc(Br)c1NC(=O)Oc1ccc2c(C)cc(=O)oc2c1 ; value: 60 µM
COc1cc(Cc2cnc(N)nc2N)cc(OCCNS(=O)(=O)c2ccc(NC(C)=O)cc2)c1Br ; value: 3.7 µM
COc1cc(-c2nc3nc(N)nc(N)c3[nH]2)cc(OC)c1OC ; value: >59.4 µM
C=C(C)c1c(OCC)cc(Cc2cnc(N)nc2N)cc1OCC ; value: 2.5 µM
O=C1OC2(c3ccccc31)c1ccc(O)c(O)c1Oc1c2ccc(O)c1O ; value: 74 µM
Nc1nc(N)c2[nH]c(-c3ccc4ccccc4c3)nc2n1 ; value: >113 µM
COc1cc(Cc2cnc(N)nc2N)cc(OC)c1C(=O)CS(=O)(=O)c1ccccc1 ; value: 14.8 µM
CC1(C)N=C(N)N=C(N)N1c1ccc(C(C#N)CCCc2ccccc2)cc1 ; value: 6.1 µM
COCCCOc1cc(Cc2cnc(N)nc2N)cc(-c2ccccc2)c1 ; value: 12.2 µM
O=C(O)COCC(=O)NNC(=O)c1ccncc1 ; value: >100 µM
CC1(C)N=C(N)N=C(N)N1c1cccc(OCCCOc2ccc(N)cc2)c1 ; value: 0.17 µM
CN(Cc1cnc2nc(N)nc(N)c2n1)c1ccc(C(=O)N[C@H](CCC(=O)O)C(=O)O)cc1I ; value: 0.000104 µM

For reference, 4 entries again:

smiles,value
COc1cc(Cc2cnc(N)nc2N)cc(OC)c1C(=O)CS(=O)(=O)c1ccccc1,14.8 µM
NC(=O)c1ccc(NCc2cnc3nc(N)nc(N)c3n2)cc1,0.153 µM
CN(Cc1cnc2nc(N)nc(N)c2n1)c1ccc(C(=O)N[C@@H](CCC(=O)N[C@@H](CCC(=O)N[C@@H](CCC(=O)O)C(=O)O)C(=O)O)C(=O)O)cc1,0.0002 µM
COc1cc(Cc2cnc(N)nc2N)cc(OCCNS(=O)(=O)c2ccc(NC(C)=O)cc2)c1Br,3.7 µM

Rows are shuffled and stem from different studies.